Measurements reported in PMC11578313, “Miniaturized Modular Click Chemistry‐enabled Rapid Discovery of Unique SARS‐CoV‐2 M^pro Inhibitors With Robust Potency and Drug‐like Profile” (Advanced Science, 2024).

Experiments:
[1] = system: SARS‐CoV‐2 Omicron (hCoV‐19/Korea/KDCA447321/2021); assay type: cell-based; conditions: ratio of CC50 to EC50, Calu‐3
[2] = system: SARS‐CoV‐2 (hCoV‐19/Korea/KCDC06/2020, wild type); assay type: cell-based; conditions: Calu‐3 cells

Cc1cncc(C(=O)N2C[C@H]3CC[C@@H](C2)N3[C@H](c2cccc(F)c2)c2cn(CCc3ccsc3)nn2)c1 [Compound C5N17B]
S.I., SARS‐CoV‐2 Omicron [1]: > 741 | more potent than AA‐625 [2]: 2 fold | more potent than GC‐14 [2]: ≈ 19 fold | fold more potent antiviral activity than C5N17A ([2]; EC50 ratio): 76 fold
